Compound potency records, mixed from different reports. Data source: NIAID ChemDB in PubChem.

Common to all: tests in culture; species: Mycobacterium tuberculosis

Blank or dashed fields: not listed here. Rows are shuffled and stem from different studies. ECn: concentration that inhibits the pathogen or its effect by n%. MIC bound comes from a single tested concentration. A number after MIC or MFC names an inhibition level or a share of isolates. Percent inhibition refers to the dose given; in toxicity tests it is the harm to the cells.

| SMILES | measure | tested at | strain or isolate | cell line | conditions | read by | result |
|---|---|---|---|---|---|---|---|
| O=C(O)c1cn(-c2ccc([N+](=O)[O-])cc2)c2cc(N3CCN(Cc4ccc5cccc(O)c5n4)CC3)c(F)cc2c1=O | inhibition | 6.25 µg/mL | H37Rv |  |  | BACTEC | 44% |
| O=P1(O)c2ccccc2Nc2cc(C(F)(F)F)ccc21 | MIC bound |  | H37Rv |  |  | BACTEC | >12.5 µg/mL |
| Cc1c(CN2CCN(c3ccccn3)CC2)cc(-c2ccc(Cl)cc2)n1NC(=O)c1cnccn1 | MIC |  | 27294 |  |  |  | >16 µg/mL |
| Cc1cc(NS(=O)(=O)c2ccc(NC(=O)C(=O)Nc3ccc(S(=O)(=O)Nc4cc(C)on4)cc3)cc2)no1 | MIC100 |  | H37Rv |  | 21 d | broth dilution / absorbance | 4 µM |
| CCNc1nc(NCC)nc(NNc2nc(-c3ccc(Cl)cc3)c(C#N)c(=O)n2C)n1 | inhibition | 12.5 µg/mL | H37Rv |  |  |  | 69% |
| CC(=O)NCC1CN(c2ccc(C(C)=O)cc2)C(=O)O1 | MIC |  | H37Rv |  |  |  | 0.97 µg/mL |
| O=C(NNC(=O)C1CCNCC1)C1CCNCC1 | MIC |  | BCG |  |  |  | 8 µg/mL |
| Cn1c(NNc2nc(Nc3cccc([N+](=O)[O-])c3)nc(Nc3cccc([N+](=O)[O-])c3)n2)nc(-c2ccc(Cl)cc2)c(C#N)c1=O | EC50 |  | H37Rv | VERO |  |  | <12.5 µg/mL |
| O=C(O)c1cn(-c2ccc([N+](=O)[O-])cc2)c2cc(N3CCOCC3)c(F)cc2c1=O | inhibition | 6.25 µg/mL | H37Rv |  |  | BACTEC | 6% |
| O=C(CCCCCCCC(=O)Nc1ccc2[nH]c3ccccc3c(=O)c2c1)Nc1ccc2[nH]c3ccccc3c(=O)c2c1 | inhibition | 12.5 µg/mL | H37Rv |  |  | BACTEC | 85% |
| C#CCn1ncc2c(SCc3ccccc3)ncnc21 | EC50 |  | H37Rv |  |  | BACTEC | >12.5 µg/mL |
| Cn1c(NNc2nc(Nc3ccc(F)c(Cl)c3)nc(Nc3ccc(F)c(Cl)c3)n2)nc(-c2ccccc2)c(C#N)c1=O | inhibition | 12.5 µg/mL | H37Rv |  |  |  | 98% |
| CCNC(=O)Nc1ccc(S(=O)(=O)Nc2cc(C)on2)cc1 | MIC100 |  | H37Rv |  | 14 d | broth dilution / absorbance | 62.5 µM |
| OC1CO[C@@H]2C[C@H](Nc3ccccn3)O[C@H]12 | MIC bound |  | H37Rv |  |  | resazurin | >6.25 µg/mL |
| NNC(=O)C1CCCNC1 | MIC |  | BCG |  |  |  | 2 µg/mL |
| CCOc1c(N=Nc2cccc(Cl)c2)c(C)nn1C(=S)SC | MIC bound |  | H37Rv |  |  | BACTEC | ≤128 µg/mL |
| CCn1cc(C(=O)O)c(=O)c2cc(F)c(N3CCN(CN4C(=O)/C(=N\c5ncc(Cc6cc(OC)c(OC)c(OC)c6)c(N)n5)c5cc(Cl)ccc54)C(C)C3)c(F)c21 | MIC |  | H37Rv |  |  |  | 1.56 µg/mL |
| NC(=O)C1CCNCC1 | MIC |  | BCG |  |  |  | 1000 µg/mL |
| CCOC(=O)c1nnc2cc(-c3ccccc3)nn2c1C | inhibition | 6.25 µg/mL | H37Rv |  |  | resazurin | 20% |
| O=c1[nH]cnc2c1cnn2Cc1cn(COCCO)nn1 | EC50 |  | H37Rv |  |  | BACTEC | >12.5 µg/mL |
| CCCCNC(=O)Nc1ccc(S(=O)(=O)Nc2cc(C)on2)cc1 | MIC100 |  | H37Rv |  | 14 d | broth dilution / absorbance | 62.5 µM |
| Cn1c(NNc2nc(Nc3ccc(Cl)cc3)nc(Nc3ccc(Cl)cc3)n2)nc(-c2ccc(Cl)cc2)c(C#N)c1=O | EC50 |  | H37Rv |  |  |  | <12.5 µg/mL |
| O=C1OCCN1/N=C/c1ccc([N+](=O)[O-])o1 | inhibition | 12.5 µg/mL | H37Rv |  |  | BACTEC | 33% |
| CO[C@H]1/C=C/O[C@@]2(C)Oc3c(C)c(O)c4c(O)c(c5c(c4c3C2=O)NC2(CCN(CC(C)C)CC2)N=5)=NC(=O)/C(C)=C\C=C\[C@H](C)[C@H](O)[C@@H](C)[C@@H](O)[C@@H](C)[C@H](OC(C)=O)[C@@H]1C | MBC |  | 3181-5 (RIF-S) |  |  |  | 0.125 µg/mL |
| C=CCN1C(=O)/C(=C/c2cccc(OC)c2OC)S/C1=N\c1nc2ccccc2s1 | MIC |  | H37Rv |  |  |  | ≥25 µg/mL |
| Fc1ccc(NC(=S)N/N=C/c2cccs2)cc1Cl | MIC |  | H37Rv |  |  |  | 2.5 µg/mL |
| Nc1ncnc2c1cnn2Cc1cn(COCCO)nn1 | EC50 |  | H37Rv |  |  | BACTEC | >12.5 µg/mL |
| C[C@@H]([C@H](NC(=O)[C@H](CC1CCCCC1)NC(=O)N[C@@H](Cc1c[nH]c2ccccc12)C(=O)OCC(C)(C)C)C(=O)NC[C@H]1C[C@@H](O)[C@H](n2ccc(=O)[nH]c2=O)O1)N(C)C(=O)CN | MIC50 |  | H37Rv |  |  | resazurin / fluorescence | 0.003 µM |
| CCO.O=C(NCc1ccccc1)Nc1nc(-c2ccccc2)c(-c2ccccc2)nc1C(=O)NCc1ccccc1 | MIC bound |  | H37Rv |  |  | BACTEC | >12.5 µg/mL |
| C[C@H]1Oc2nc([N+](=O)[O-])cn2C[C@@H]1OCc1ccc(OC(F)(F)F)cc1 | MIC |  | H37Rv |  |  | absorbance | 0.2 µM |
| CC1NCC(C(=O)NN)C(O)N1 | MIC |  | BCG |  |  |  | 400 µg/mL |
| CCOc1ccc(N2C(=O)/C(=C/c3cccc([N+](=O)[O-])c3)S/C2=N\c2ccccn2)cc1 | MIC |  | H37Rv |  |  |  | ≥25 µg/mL |
| C[C@@H]([C@H](NC(=O)[C@H](Cc1ccc2ccccc2c1)NC(=O)N[C@@H](Cc1c[nH]c2ccccc12)C(=O)OCC(C)(C)C)C(=O)NC[C@H]1C[C@@H](O)[C@H](n2ccc(=O)[nH]c2=O)O1)N(C)C(=O)CN | MIC99 |  | H37Rv |  |  | resazurin / fluorescence | 0.044 µM |
| CN1CC2=C(NC(=S)NC2c2ccccc2Cl)/C(=C\c2ccccc2Cl)C1.Cl | MIC bound |  | H37Rv |  |  | BACTEC | >12.5 µg/mL |
| Cc1ccc2ccccc2c1-c1[nH]c(-c2ccc(Cl)cc2)cc1CN1CCN(c2cccc(C(F)(F)F)c2)CC1 | MIC |  | 27294 |  |  |  | 4 µg/mL |
| COc1ccc(C2C(=O)c3ccc(OC)cc3OC2c2ccccc2)cc1 | inhibition | 12.5 µg/mL | H37Rv |  |  | BACTEC | -18% |
| COC(=O)[C@H](Cc1c[nH]c2ccccc12)NC(=O)N[C@@H](Cc1ccc2ccccc2c1)C(=O)N[C@H](C(=O)NC[C@H]1C[C@@H](O)[C@H](n2ccc(=O)[nH]c2=O)O1)[C@H](C)N(C)C(=O)CN | MIC99 |  | H37Rv |  |  | resazurin / fluorescence | 0.16 µM |
| Cc1cc(CN2CCN(c3cccc(C(F)(F)F)c3)CC2)c(-c2ccc(Cl)cc2)n1NC(=O)c1cnccn1 | MIC |  | 27294 |  |  |  | >16 µg/mL |
| O=C1O[C@H]([C@H](O)CO)C(O)=C1O | MIC |  | H37Rv |  |  | BACTEC | ≥128 µg/mL |
| COc1cc(Cc2cnc(/N=C3\C(=O)N(CN4CCN(c5cc6c(cc5F)c(=O)c(C(=O)O)cn6C5CC5)CC4)c4ccc(Br)cc43)nc2N)cc(OC)c1OC | MIC |  | H37Rv |  |  |  | 3.13 µg/mL |
| C[C@@H]([C@H](NC(=O)[C@H](Cc1ccc2ccccc2c1)NC(=O)N[C@@H](Cc1c[nH]c2ccccc12)C(=O)NCc1ccccc1)C(=O)NC[C@H]1C[C@@H](O)[C@H](n2ccc(=O)[nH]c2=O)O1)N(C)C(=O)CN | MIC99 |  | H37Rv |  |  | resazurin / fluorescence | 0.328 µM |
| CC(=O)Oc1ccccc1C(=O)Nc1ncc([N+](=O)[O-])s1 | MIC |  | LAM spoligotype 20 |  |  | visual reading | 20 µg/mL |
| C=CCN1C(=O)/C(=C/c2cccc([N+](=O)[O-])c2)S/C1=N\c1nc2ccccc2s1 | MIC |  | H37Rv |  |  |  | ≥25 µg/mL |
| Cn1c(NNc2nc(Nc3ccccn3)nc(Nc3ccccn3)n2)nc(-c2ccccc2)c(C#N)c1=O | MIC |  | H37Rv |  |  |  | >12.5 µg/mL |
| NNC(=O)C(c1ccccc1)c1ccccc1 | MIC |  | BCG |  |  |  | 100 µg/mL |
| CCOc1ccc(N2C(=O)/C(=C/c3ccc(O)c(OCC)c3)S/C2=N\c2ccccn2)cc1 | MIC |  | H37Rv |  |  |  | ≥25 µg/mL |
| CC(C)=CC[C@H](O)C1=CC(=O)c2c(O)ccc(O)c2C1=O | inhibition | 12.8 µg/mL | H37Rv |  |  | BACTEC | 98% |
| C#CCn1ncc2c(SC)ncnc21 | inhibition | 12.5 µg/mL | H37Rv |  |  | BACTEC | 90% |
| C=CCN1C(=O)/C(=C\c2ccccn2)S/C1=N\c1nc2ccccc2s1 | MIC |  | H37Rv |  |  |  | ≥25 µg/mL |
| Cc1ccc2[nH]c3c(C)c4ccncc4c(C)c3c2c1 | MIC bound |  | H37Rv |  |  | resazurin | <6.25 µg/mL |
| C[C@@H]([C@H](NC(=O)[C@H](CC1CCCCC1)NC(=O)N[C@@H](Cc1c[nH]c2ccccc12)C(=O)NCc1ccccc1)C(=O)NC[C@H]1C[C@@H](O)[C@H](n2ccc(=O)[nH]c2=O)O1)N(C)C(=O)CN | MIC50 |  | H37Rv |  |  | resazurin / fluorescence | 0.057 µM |
| Cc1cc(CN2CCN(Cc3ccc4c(c3)OCO4)CC2)c(-c2ccccc2)n1NC(=O)c1cnccn1 | MIC |  | 27294 |  |  |  | >16 µg/mL |
| C[C@@H]([C@H](NC(=O)[C@H](CC1CCCCC1)NC(=O)N[C@@H](Cc1c[nH]c2ccccc12)C(=O)OCc1ccccc1)C(=O)NC[C@H]1C[C@@H](O)[C@H](n2ccc(=O)[nH]c2=O)O1)N(C)C(=O)CN | MIC50 |  | H37Rv |  |  | resazurin / fluorescence | 0.009 µM |
| CCOC(=O)C(Cc1ccccc1)NOP(=O)(CCC(=O)N1C[C@@H](n2cnc3c(=O)[nH]c(N)nc32)[C@H](OC[C@@H](O)P(=O)(ONC(Cc2ccccc2)C(=O)OCC)ONC(Cc2ccccc2)C(=O)OCC)C1)ONC(Cc1ccccc1)C(=O)OCC | MIC90 |  | H37Rv |  |  |  | 14 µM |
| Cc1c(C(=O)C/C(=N/NC(=O)C[N+](C)(C)C)C(=O)Nc2ccc(Cl)cc2)[n+](=O)c2ccccc2n1[O-] | inhibition | 6.25 µg/mL | H37Rv |  |  | resazurin | 9% |
| C[C@@H]1CN(c2c(F)c(N)c3c(=O)c(C(=O)O)cn(C4CC4)c3c2F)C[C@H](C)N1 | Median MIC90 |  | 139 strains |  |  |  | 0.125 µg/mL |
| COc1cc(Cc2cnc(/N=C3\C(=O)N(CN4CCN(c5c(F)cc6c(=O)c(C(=O)O)cn(C7CC7)c6c5F)CC4C)c4ccc(F)cc43)nc2N)cc(OC)c1OC | MIC |  | H37Rv |  |  |  | 3.13 µg/mL |
| COc1ncnc2c1cnn2Cc1cn(COCCO)nn1 | inhibition | 6.25 µg/mL | H37Rv |  |  | BACTEC | 57% |
| Cc1nc(N)sc1-c1ccccc1 | inhibition | 6.25 µg/mL | H37Rv |  |  | BACTEC | 0% |
| CCNc1nc(NCC)nc(NNc2nc(-c3ccccc3)c(C#N)c(=O)n2C)n1 | MIC |  | H37Rv |  |  |  | >12.5 µg/mL |
| NC(Cn1ccc(=O)c(O)c1)C(=O)O | MIC |  | H37Rv |  |  | BACTEC | ≥12.8 µg/mL |
| CCOc1ccc(N2C(=O)/C(=C/c3ccc(O)cc3)S/C2=N\c2ccccn2)cc1 | MIC |  | H37Rv |  |  |  | ≥25 µg/mL |
| C(=N\N1CCN(/N=C/c2ccccc2)C1c1ccccc1)/c1ccccc1 | MIC bound |  | H37Rv |  |  | BACTEC | >12.5 µg/mL |
| Cn1c(NNc2nc(Nc3cc(Cl)cc(Cl)c3)nc(Nc3cc(Cl)cc(Cl)c3)n2)nc(-c2ccc(Cl)cc2)c(C#N)c1=O | MIC |  | H37Rv |  |  |  | >12.5 µg/mL |
| C=CCN1C(=O)CS/C1=N\c1nc2ccccc2s1 | MIC |  | H37Rv |  |  |  | ≥25 µg/mL |
| Nc1ccc(-n2cc(C(=O)O)c(=O)c3cc(F)c(N4CCOCC4)cc32)c(F)c1 | inhibition | 6.25 µg/mL | H37Rv |  |  | BACTEC | 48% |
| CCCc1cc(O)cc(O)c1/C=C1\S/C(=N\c2ccccn2)N(c2ccc(OCC)cc2)C1=O | MIC |  | H37Rv |  |  |  | ≥25 µg/mL |
| Cn1cc(NC(=O)c2cc(NC(=O)CCCCCC(=O)Nc3cc(C(=O)Nc4cc(C(=O)NCCC(N)=[NH2+])n(C)c4)n(C)c3)cn2C)cc1C(=O)NCCC(N)=[NH2+] | MIC bound |  | H37Rv |  |  | BACTEC | ≤12.5 µg/mL |
| COc1ccc(/C=N/NC(=S)Nc2ccc(F)c(Cl)c2)cc1 | MIC |  | H37Rv |  |  |  | 2.4 µg/mL |
| O=c1cc(O)n2ncnc2[nH]1 | inhibition | 6.25 µg/mL | H37Rv |  |  | resazurin | 29% |
| NNC(=O)c1ccncc1 | MIC |  | BCG |  |  |  | 0.02 µg/mL |
| COc1c2c(cc3c1-c1c(cc4c(c1OC)OCO4)CC(C)C(C)C3)OCO2 | inhibition | 12.5 µg/mL | H37Rv |  |  | BACTEC | 7% |
| CNC(=O)Nc1ccc(S(=O)(=O)Nc2cc(C)on2)cc1 | MIC100 |  | H37Rv |  | 21 d | broth dilution / absorbance | 32 µM |
| CSC(=S)n1nc(-c2cccs2)c(N=Nc2ccccc2)c1C(F)(F)F | inhibition | 128 µg/mL | H37Rv |  |  | BACTEC | 100% |
| Cc1cc(NS(=O)(=O)c2ccc(NC(=O)Nc3ccc(S(=O)(=O)Nc4cc(C)on4)cc3)cc2)no1 | MIC100 |  | H37Rv |  | 21 d | broth dilution / absorbance | 2 µM |